Measurements reported in PubChem BioAssay AID1224833 (University of Georgia, 2016).
The whole screen tested about 12,000 reagents; shown is an unselected part. In the full data, about 5,600 (46%) are marked active. 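Active calls cover z-scores past 1 in both directions, so they include lowered as well as raised rotavirus replication.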 Entries without a mark were called inactive. Reagent sequences are not shown.

Aim: 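Host factors restraining rotavirus as candidate antiviral genes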 (primary screen)
Cells: monkey MA104 kidney cells
Reagents: siRNA pool against human genes, 50 nM
Duration: 48 h knock-down before infection; read 24 h after infection
Treatment: infection with rotavirus strain RV3 two days after transfection; infectious dose for this stage not given
Measured: 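z-score of rotavirus antigen signal per well, from a fluorescent immunoassay, relative to non-targeting control wells on the same plate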
Reading the numbers: z-score vs non-targeting control: higher = more rotavirus replication than with non-targeting control
Call rule: In these data the active calls have z-score vs non-targeting control at about -1 or lower, or at about 1 or higher
Calls: active = z-score beyond 1 either way; inactive = z-score within 1 of zero

The first 5 entries as a preview:
| gene | z-score vs non-targeting control |
| --- | --- |
| GIN1 (gypsy retrotransposon integrase 1) | -0.922 |
| ZRANB2 (zinc finger RANBP2-type containing 2) | 1.47 (active) |
| SYT7 (synaptotagmin 7) | 1.21 (active) |
| HILPDA (hypoxia inducible lipid droplet associated) | -1.29 (active) |
| MIER3 (MIER family member 3) | -0.722 |

The list itself, repeating the preview:
| gene | z-score vs non-targeting control |
| --- | --- |
| GIN1 (gypsy retrotransposon integrase 1) | -0.922 |
| ZRANB2 (zinc finger RANBP2-type containing 2) | 1.47 (active) |
| SYT7 (synaptotagmin 7) | 1.21 (active) |
| HILPDA (hypoxia inducible lipid droplet associated) | -1.29 (active) |
| MIER3 (MIER family member 3) | -0.722 |
| UMOD (uromodulin) | 0.0014 |
| CCN4 (cellular communication network factor 4) | -0.476 |
| TOMM34 (translocase of outer mitochondrial membrane 34) | -0.669 |
| AKAP8 (A-kinase anchoring protein 8) | -0.822 |
| RAB4A (RAB4A, member RAS oncogene family) | -0.468 |
| MFHAS1 (multifunctional ROCO family signaling regulator 1) | 0.718 |
| C1QTNF7 (C1q and TNF related 7) | -1.82 (active) |
| RBM18 (RNA binding motif protein 18) | -0.468 |
| ITM2B (integral membrane protein 2B) | -0.924 |
| ELMO3 (engulfment and cell motility 3) | -0.437 |
| NR2F1 (nuclear receptor subfamily 2 group F member 1) | -1.09 (active) |
| JAG1 (jagged canonical Notch ligand 1) | 1.26 (active) |
| CCDC198 (coiled-coil domain containing 198) | -0.304 |
| SFN (stratifin) | -0.471 |
| ILRUN | -2.2 (active) |
| CEP19 (centrosomal protein 19) | -1.57 (active) |
| KIF13A (kinesin family member 13A) | -0.647 |
| CBS (cystathionine beta-synthase) | -1.59 (active) |
| TNNC2 (troponin C2, fast skeletal type) | 0.414 |
| ARL2 (ARF like GTPase 2) | -0.389 |
| NMNAT1 (nicotinamide nucleotide adenylyltransferase 1) | 1.62 (active) |
| DEFB103B (defensin beta 103B) | -0.418 |
| LCE2C (late cornified envelope 2C) | 0.193 |
| MCEMP1 (mast cell expressed membrane protein 1) | -2 (active) |
| ANKRD50 (ankyrin repeat domain 50) | 0.0321 |
| RMDN1 (regulator of microtubule dynamics 1) | 0.39 |
| TMEM64 (transmembrane protein 64) | -1.1 (active) |
| FAM177A1 (family with sequence similarity 177 member A1) | -0.258 |
| CEP63 (centrosomal protein 63) | -2.43 (active) |
| LRRN3 (leucine rich repeat neuronal 3) | -0.14 |
| ARL13B (ARF like GTPase 13B) | 1.03 (active) |
| ABCF2 (ATP binding cassette subfamily F member 2) | -1.75 (active) |
| ZNF398 (zinc finger protein 398) | -3.26 (active) |
| SLAIN1 (SLAIN family member 1) | -1.17 (active) |
| PNKD (PNKD metallo-beta-lactamase domain containing) | -2.82 (active) |
| F5 (coagulation factor V) | 0.891 |
| FGD2 (FYVE, RhoGEF and PH domain containing 2) | -0.856 |
| CCDC167 (coiled-coil domain containing 167) | 0.762 |
| RBM6 (RNA binding motif protein 6) | -0.265 |
| SLBP (stem-loop histone mRNA binding protein) | 0.128 |
